In test [1] the target is T1, recombinant binding domain of BoNT/A, His-rHC/A (Clostridium botulinum).
For test [2], the target named is T1, recombinant binding domain of BoNT/A, …. The source holds these as a separate data set.

B1: FGFR3c Loop 3 (domain or fragment)
chain: PILQAGLPANQTAVLGSDVEFHCKVYSDAQPHIQWLKHVEVNGSKVGPDGTPYVTVLKTAGANTTDKELEVLSLHNVTFEDAGEYTCLAGNSIGFSHHSAWLV
The Kd is the equilibrium constant for the complex coming apart. Regarding B1, the Kd in test [1] stood at 333 nM.

B2: FGFR3b Loop 3 (domain or fragment)
chain: PILQAGLPANQTAVLGSDVEFHCKVYSDAQPHIQWLKHVEVNGSKVGPDGTPYVTVLKSWISESVEADVRLRLANVSERDGGEYLCRATNFIGVAEKAFWLS
As usually defined, the koff is a measure of how fast the partners let go of each other. Consider B2, for which the dissociation rate constant (koff) in test [2] was 0.000406 s⁻¹. The Kd in test [1] turned out to be 262 nM.

B3: FGFR3c Loop 1,2,3 (long version) (domain or fragment)
chain: ESLGTEQRVVGRAAEVPGPEPGQQEQLVFGSGDAVELSCPPPGGGPMGPTVWVKDGTGLVPSERVLVGPQRLQVLNASHEDSGAYSCRQRLTQRVLCHFSVRVTDAPSSGDDEDGEDEAEDTGVDTGAPYWTRPERMDKKLLAVPAANTVRFRCPAAGNPTPSISWLKNGREFRGEHRIGGIKLRHQQWSLVMESVVPSDRGNYTCVVENKFGSIRQTYTLDVLERSPHRPILQAGLPANQTAVLGSDVEFHCKVYSDAQPHIQWLKHVEVNGSKVGPDGTPYVTVLKTAGANTTDKELEVLSLHNVTFEDAGEYTCLAGNSIGFSHHSAWLVVLPAEEELVEADEAGSVYAG
B3: the Kd in test [1] was 28.7 nM.

B4: FGFR3b Loop 1,2,3 (short version) (domain or fragment)
chain: SLGTEQRVVGRAAEVPGPEPGQQEQLVFGSGDAVELSCPPPGGGPMGPTVWVKDGTGLVPSERVLVGPQRLQVLNASHEDSGAYSCRQRLTQRVLCHFSVRVTDAPSSGDDEDGEDEAEDTGVDTGAPYWTRPERMDKKLLAVPAANTVRFRCPAAGNPTPSISWLKNGREFRGEHRIGGIKLRHQQWSLVMESVVPSDRGNYTCVVENKFGSIRQTYTLDVLERSPHRPILQAGLPANQTAVLGSDVEFHCKVYSDAQPHIQWLKHVEVNGSKVGPDGTPYVTVLKSWISESVEADVRLRLANVSERDGGEYLCRATNFIGVAEKAFWLSVHG
For the molecule B4, the Kd in test [1] came out at 11.7 nM.

B5: FGFR3b Loop 1,2,3 (long version) (domain or fragment)
chain: ESLGTEQRVVGRAAEVPGPEPGQQEQLVFGSGDAVELSCPPPGGGPMGPTVWVKDGTGLVPSERVLVGPQRLQVLNASHEDSGAYSCRQRLTQRVLCHFSVRVTDAPSSGDDEDGEDEAEDTGVDTGAPYWTRPERMDKKLLAVPAANTVRFRCPAAGNPTPSISWLKNGREFRGEHRIGGIKLRHQQWSLVMESVVPSDRGNYTCVVENKFGSIRQTYTLDVLERSPHRPILQAGLPANQTAVLGSDVEFHCKVYSDAQPHIQWLKHVEVNGSKVGPDGTPYVTVLKSWISESVEADVRLRLANVSERDGGEYLCRATNFIGVAEKAFWLSVHGPRAAEEELVEADEAGSVYAG
Take B5: the Kd in test [1] came to 11.9 nM.

B6: FGFR3c Loop 1,2,3 (short version) (domain or fragment)
chain: SLGTEQRVVGRAAEVPGPEPGQQEQLVFGSGDAVELSCPPPGGGPMGPTVWVKDGTGLVPSERVLVGPQRLQVLNASHEDSGAYSCRQRLTQRVLCHFSVRVTDAPSSGDDEDGEDEAEDTGVDTGAPYWTRPERMDKKLLAVPAANTVRFRCPAAGNPTPSISWLKNGREFRGEHRIGGIKLRHQQWSLVMESVVPSDRGNYTCVVENKFGSIRQTYTLDVLERSPHRPILQAGLPANQTAVLGSDVEFHCKVYSDAQPHIQWLKHVEVNGSKVGPDGTPYVTVLKTAGANTTDKELEVLSLHNVTFEDAGEYTCLAGNSIGFSHHSAWLV
As for B6, the Kd in test [1] was found to be 25.4 nM.

B7: FGFR3c Loop 2,3 (domain or fragment)
chain: PYWTRPERMDKKLLAVPAANTVRFRCPAAGNPTPSISWLKNGREFRGEHRIGGIKLRHQQWSLVMESVVPSDRGNYTCVVENKFGSIRQTYTLDVLERSPHRPILQAGLPANQTAVLGSDVEFHCKVYSDAQPHIQWLKHVEVNGSKVGPDGTPYVTVLKTAGANTTDKELEVLSLHNVTFEDAGEYTCLAGNSIGFSHHSAWLV
For the molecule B7, the Kd in test [1] came out at 78 nM.

Values taken from publication PMC3656097 (2013).
